Test results from US20200123233A1.

Legend:
[1] = target: authentic AIV antigen / virus of influenza strain A/Turkey/Wisconsin/68 (H5N9) (influenza A virus A/Turkey/Wisconsin/68 (H5N9)); assay: cell-based or functional assay
[2] = target: authentic AIV antigen / virus of influenza strain A/Turkey/Wisconsin/68 (H5N9) (influenza A virus A/Turkey/Wisconsin/68 (H5N9))

| Binder | HI titer [1] [µg/mL] | VNT titer [1] [µg/mL] | ELISA titer (NANOBODY concentration giving extinction 0.2) [2] [ng/mL] |
| --- | --- | --- | --- |
| IV156 (VHH) VHH: QVQLQQSGGGLVQPGGSLRLSCAASRSGFSFNPMGWYRQAPGKQRELVATITSGGTTNYADSVKGRFTISTDNAKTTVFLQMNSLKPEDTAVYYCNGRGPRRGTAGWFTDDYWGQGTQVTVSS | > 1000 | > 50 | 14.4 |
| IV157 (VHH) VHH: QVQLQQSGGGLVQPGGSLRLSCAASRSDISFNPMGWYRQAPGKQRELVATISNGGTTNYADSVKGRFTISQDNAKTTVYLQMNSLKPEDTAVYYCNGRGPRYATTGWYTDDYWGQGTQVTVSS | > 1000 | > 50 | 14.5 |
| IV146 (VHH) VHH: QVQLQQSGGGLVQAGGSLRLSCAASGSSFSINAMGWYRQAPGKQRELVAAISSGGSANYADSVKGRFTISRDNAKNTVYLQMNSLKPEDTAVYYCNAGSRFNPFGSAYDYWGQGTQVTVSS | > 1000 | < 0.75 | 43 |
| IV154 (VHH) VHH: QVQLQESGGGLVQAGGSLRLSCAASGRPFSSAAMGWFRQAPGKEREFVSAISYTGDVTRYADSVKGRFTISRDNTRNTLTLEMNSLKPEDTAVYYCAARTYAGVRAHTYDYDYWGQGTQVTVSS | > 1000 | > 50 | 8.3 |
| IV155 (VHH) VHH: QVQLQESGGGLVQAGGSLRLSCAASGRSLSRYAMGWFRQAPGKEREFVATKTSGGVTYYGASVKGRFTISRDNAKNMVYLQMNSLNPEDTAIYYCAAGTDAIFKPWMLPDYWGQGTQVTVSG | > 1000 | > 50 | 34.3 |
